According to PubChem BioAssay AID2170 (The Scripps Research Institute Molecular Screening Center, 2009):
The entries are a selection whose mix differs from that of the whole data set. Activity calls are given as the source filed them.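 The calls were made as follows: active = mean inhibition over replicate wells above the hit cutoff set for the earlier primary screen (cut at about 29% in these data); inactive = the rest.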

The compounds below were run on M18 aspartyl aminopeptidase (Plasmodium falciparum 3D7) (assay: PfM18AAP inhibitors, malaria aminopeptidase, confirmation, biochemical, QFRET, recombinant enzyme, triplicate (AID 2170;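 also: 0% = median of test compound wells and 100% = 2 mM ZnCl2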)). Conditions: H-Glu-NHMec fluorogenic cleavage, at 7.35 µM, hits give high values.
Method in brief: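 Test system: recombinant P. falciparum M18 aspartyl aminopeptidase; incubation: Enzyme–compound pre-incubation 30 min, substrate reaction 90 min, both 25 °C; detection: fluorescence, excitation 340 nm, emission 450 nm, read at 0 and 90 min; evaluation: percent inhibition from 0–90 min fluorescence gain, scaled between controls; benchmarks: ZnCl2 inhibitor control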

| Structure (SMILES) | inhibition |
| --- | --- |
| CC(C)=N/N=C(\N)N[N+](=O)[O-] | inactive: -42.2% |
